From publication PMC12133982 (2025)
pIC50: −log10 of the molar value.

What was measured:
HLA-B5801 = HLA-B5801 (Homo sapiens, UniProt P01889, A329T/C349S/D201E/D98Y/E176V/E187L/E204Q/E69T/G107R/I218V/I90N/K202T/L105A/L119I/N104I/N87E/Q89R/Q94S/R106L/R155S/R180L/R86G/S101N/S121R/S35A/S48A/T118I/V127L/V306I/V36M/Y140S/Y91M); experiment: cell-based; conditions: Binding affinity with HLA-B5801, HMy2.CIR-B5801 cells, reference Cy5-[…], class from inhibition at 5 and 15 μM, flow cytometry MFI
HLA-B1501 = HLA-B1501 (Homo sapiens, UniProt P01889, A329T/A93T/A95T/C349S/D201E/D98Y/E187L/E204Q/E69M/E70A/K202T/N87E/Q94N/R155S/R180W/S121R/S35A/S48A/V306I/V36M/Y140S/Y91S); experiment: cell-based
HLA-B3501 = HLA-B3501 (Homo sapiens, UniProt P01889, A329T/A93T/A95T/C349S/D201E/D98Y/E176V/E187L/E204Q/E69T/I218V/K202T/L119I/Q94N/R155S/R180L/S121R/S35A/S48A/T118I/V127L/V306I/V36M/Y140S/Y91F); experiment: cell-based
HLA-B1301 = HLA-B1301 (Homo sapiens, UniProt P01889, A65T/A93T/A95T/D138N/D201E/D98Y/E176V/E204Q/E69M/E70A/G107R/K202T/L105A/L119I/N104T/N87E/Q94N/R106L/R155S/R169L/R180L/S101N/S121R/S35A/S48T/T118I/V127L/V36M/Y140L/Y91S); experiment: Competitive peptide binding assay, CIR-B1301

Measured: pIC50

CC[C@H](C)[C@H](NC(=O)[C@H](CCC(=O)O)NC(=O)[C@@H](N)CCCCN)C(=O)N[C@@H](CC(=O)O)C(=O)N[C@@H](CCCNC(=N)N)C(=O)N[C@@H](CC(C)C)C(=O)N[C@@H](CC(N)=O)C(=O)N[C@@H](CCC(=O)O)C(=O)N[C@H](C(=O)O)C(C)C [Epitope Y119]
< 4.82: all assays above
